## Deep mutational scan of the Zika virus protease

Reference: Ni et al. 2025, doi:10.1038/s41467-025-63602-z.

Protein: NS2B and the protease part of NS3 of Zika virus strain MR766. Positions count along the chain below; NS2B spans 2-131 and NS3 starts at 132.
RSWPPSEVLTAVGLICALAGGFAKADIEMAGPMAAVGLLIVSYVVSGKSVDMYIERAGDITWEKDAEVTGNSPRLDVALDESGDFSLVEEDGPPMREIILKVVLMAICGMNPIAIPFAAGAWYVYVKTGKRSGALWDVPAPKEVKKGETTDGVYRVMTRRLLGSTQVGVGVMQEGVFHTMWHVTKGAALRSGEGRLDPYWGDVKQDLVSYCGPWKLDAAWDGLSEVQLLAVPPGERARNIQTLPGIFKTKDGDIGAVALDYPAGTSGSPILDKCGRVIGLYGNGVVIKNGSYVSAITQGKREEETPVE

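Mutant virus pools were grown in human Huh-7.5 cells. Deep sequencing gave the change in frequency of each mutant relative to wild type, averaged over three replicate libraries (two for positions 207-308). The aim was to find sites where inhibitor-binding pockets cannot change.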

Values are log2 effects on growth: 0 is wild type, lower means poorer growth.
Substitutions are written as wild-type residue, site number, new residue.
All changes here are to serine.
The authors count -1 or higher as tolerated. Position 1 is the last residue of NS2A.

- V68S = -7.48
- T69S = -0.01
- G70S = -7.54
- N71S = -0.62
- P73S = -7.85
- R74S = -1.05
- L75S = -8.08
- D76S = -0.18
- V77S = -7.76
- A78S = -0.43
- L79S = -7.62
- D80S = 0.51
- E81S = -7.43
- G83S = -7.82
- D84S = -7.00
- F85S = -5.43
- L87S = -7.52
- V88S = -6.97
- E89S = -0.43
- E90S = -0.45
- D91S = -1.12
- G92S = -3.26
- P93S = -5.99
- P94S = -1.64
- M95S = -3.34
- R96S = -2.01
- E97S = -3.75
- I98S = -5.41
- I99S = -5.05
- L100S = -4.39
- K101S = -7.32
- V102S = -1.08
- V103S = -1.23
- L104S = -6.06
- M105S = -7.40
- A106S = -1.02
- I107S = -3.00
- C108S = 0.27
- G109S = -6.25
- M110S = -1.53

A selection of 5 entries from above:

| mutation | log2 effect |
|---|---|
| D91S | -1.12 |
| D80S | 0.51 |
| V102S | -1.08 |
| G109S | -6.25 |
| E81S | -7.43 |

The region was split into three libraries (1-103, 104-206, 207-308).
Values above 0 are not proof of better growth: six high scorers were tested one by one, five grew less well than wild type and one about as well.